Values quoted from earlier work as cited in article PMC2907105 (Biochemistry, 2010).

Chains of the proteins cited; added tags and fusions are not shown.
UniProt P04775, whole entry, looked up: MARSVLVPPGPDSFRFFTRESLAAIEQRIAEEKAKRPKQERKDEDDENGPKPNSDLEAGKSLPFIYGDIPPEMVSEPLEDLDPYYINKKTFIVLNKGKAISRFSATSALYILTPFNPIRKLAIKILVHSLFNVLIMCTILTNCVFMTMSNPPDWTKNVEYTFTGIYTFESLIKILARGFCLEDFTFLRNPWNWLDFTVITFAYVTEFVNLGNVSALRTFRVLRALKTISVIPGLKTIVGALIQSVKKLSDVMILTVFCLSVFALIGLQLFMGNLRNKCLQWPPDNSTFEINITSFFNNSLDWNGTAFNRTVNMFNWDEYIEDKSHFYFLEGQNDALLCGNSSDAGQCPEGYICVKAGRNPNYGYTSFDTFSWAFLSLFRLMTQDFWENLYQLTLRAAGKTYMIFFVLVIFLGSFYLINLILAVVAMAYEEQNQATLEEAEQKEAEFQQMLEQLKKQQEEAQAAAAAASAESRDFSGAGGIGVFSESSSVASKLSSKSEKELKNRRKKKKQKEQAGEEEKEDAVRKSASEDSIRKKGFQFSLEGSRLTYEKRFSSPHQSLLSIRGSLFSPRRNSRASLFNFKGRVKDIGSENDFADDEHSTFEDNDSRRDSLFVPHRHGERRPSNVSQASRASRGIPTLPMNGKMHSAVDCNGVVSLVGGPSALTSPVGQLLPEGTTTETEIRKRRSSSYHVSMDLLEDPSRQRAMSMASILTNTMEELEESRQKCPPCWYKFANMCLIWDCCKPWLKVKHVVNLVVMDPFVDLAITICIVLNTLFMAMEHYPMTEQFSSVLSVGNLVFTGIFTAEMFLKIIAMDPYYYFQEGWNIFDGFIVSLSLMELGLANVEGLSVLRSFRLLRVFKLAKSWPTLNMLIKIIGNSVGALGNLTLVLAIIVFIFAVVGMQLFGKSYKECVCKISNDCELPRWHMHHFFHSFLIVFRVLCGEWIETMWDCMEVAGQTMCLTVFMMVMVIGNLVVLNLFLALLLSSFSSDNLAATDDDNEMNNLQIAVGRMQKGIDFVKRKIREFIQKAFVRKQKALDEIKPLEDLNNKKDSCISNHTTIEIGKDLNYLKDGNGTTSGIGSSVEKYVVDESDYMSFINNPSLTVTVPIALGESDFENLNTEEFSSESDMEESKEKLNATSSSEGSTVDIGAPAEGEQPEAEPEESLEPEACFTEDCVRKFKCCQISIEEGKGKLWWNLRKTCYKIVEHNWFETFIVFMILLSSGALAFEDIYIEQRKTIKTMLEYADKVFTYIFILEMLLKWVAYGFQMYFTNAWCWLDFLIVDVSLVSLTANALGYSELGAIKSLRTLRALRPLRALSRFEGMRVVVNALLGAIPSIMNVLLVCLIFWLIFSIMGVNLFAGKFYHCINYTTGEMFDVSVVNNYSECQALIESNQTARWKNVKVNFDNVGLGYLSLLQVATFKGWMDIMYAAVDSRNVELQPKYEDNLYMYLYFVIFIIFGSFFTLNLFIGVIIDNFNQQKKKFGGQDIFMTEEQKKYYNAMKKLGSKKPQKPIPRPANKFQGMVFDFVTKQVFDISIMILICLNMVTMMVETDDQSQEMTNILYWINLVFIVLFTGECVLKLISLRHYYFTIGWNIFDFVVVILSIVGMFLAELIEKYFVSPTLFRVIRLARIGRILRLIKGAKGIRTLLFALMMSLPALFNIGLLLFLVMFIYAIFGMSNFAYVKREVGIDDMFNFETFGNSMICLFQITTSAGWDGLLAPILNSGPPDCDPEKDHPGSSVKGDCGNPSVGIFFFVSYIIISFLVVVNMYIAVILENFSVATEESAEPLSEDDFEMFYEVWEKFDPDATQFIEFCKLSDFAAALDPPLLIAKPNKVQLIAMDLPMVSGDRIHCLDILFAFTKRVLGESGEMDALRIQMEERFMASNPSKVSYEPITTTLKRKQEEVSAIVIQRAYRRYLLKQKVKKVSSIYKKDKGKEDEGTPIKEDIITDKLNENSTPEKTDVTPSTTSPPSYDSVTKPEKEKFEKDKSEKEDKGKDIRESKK

Target: rat NaV1.2 (Rattus norvegicus, UniProt P04775)

In the case of `NC1=N[C@H](O)[C@H]2[C@H]3O[C@]4(O)O[C@@H]([C@@H](O)[C@@]2(N1)[C@@H]4O)[C@]3(O)CO` [TTX, tetrodotoxin], the Kd is given as 38 ± 6 nM.
